Measured values from several laboratories, pooled; numbers as filed in NIAID ChemDB.

All rows: tests in culture; organism: Candida albicans; method: agar diffusion; read-out: zone

Zone: diameter of growth inhibition.

SMILES	dose	strain or isolate	value
CCCCc1nc(Cl)c(-c2cc(-c3cc(OC)c(OC)c(OC)c3)nc3c2C(=O)c2ccccc2-3)n1Cc1ccccc1	10 µg/disc	MTCC 7253	10 mm
CC(C)(CN=C/C=C/c1ccccc1[N+](=O)[O-])CN=C/C=C/c1ccccc1[N+](=O)[O-]	5 mg/disc	-	18 mm
Cc1ccc(N2NOC(=O)C2S(=O)(=O)Nc2ccc(-n3c(-c4ccccc4)nc4ccccc4c3=O)cc2)cc1	250 µg/mL	MTCC 227	20 mm
CCCCc1nc(Cl)c(-c2cc(-c3ccco3)nc3c2C(=O)c2ccccc2-3)n1Cc1ccccc1	10 µg/disc	MTCC 7253	13 mm
Cc1ccc(N2NOC(=O)C2S(=O)(=O)Nc2ccc(-n3c(-c4ccc([N+](=O)[O-])cc4)nc4ccccc4c3=O)cc2)cc1	250 µg/mL	MTCC 227	24 mm
CC(=O)Oc1c(-c2ccc(N(C)C)cc2)oc2ccccc2c1=O	100 µg/mL	-	19 mm
CCCCc1nc(Cl)c(-c2cc(-c3cn(S(=O)(=O)c4ccc(C)cc4)c4ccccc34)nc3c2C(=O)c2ccccc2-3)n1Cc1ccccc1	10 µg/disc	MTCC 7253	13 mm
CC(=O)Oc1c(-c2ccc(Cl)cc2)oc2ccc(Cl)cc2c1=O	100 µg/mL	-	20 mm
CN[C@@H]1[C@@H](O)[C@@H](O[C@@H]2[C@@H](O)[C@H](O[C@H]3O[C@H](CN)CC[C@H]3N)[C@@H](N)C[C@H]2N)OC[C@]1(C)O	10 µg	ATCC 10231	6 mm
Cc1ccc(N2NOC(=O)C2S(=O)(=O)Nc2ccc(-n3c(-c4cccc(Cl)c4)nc4ccccc4c3=O)cc2)cc1	250 µg/mL	MTCC 227	25 mm
O=c1c(O)c(-c2ccc(F)cc2)oc2ccccc12	100 µg/mL	-	16 mm
CN(C)[C@@H]1C(=O)C(C(N)=O)=C(O)[C@@]2(O)C(=O)C3=C(O)c4c(O)cccc4[C@@](C)(O)[C@H]3C[C@@H]12	30 µg	WILD TYPE	6 mm
CN[C@@H]1[C@@H](O)[C@@H](O[C@@H]2[C@@H](O)[C@H](O[C@H]3O[C@H](CN)CC[C@H]3N)[C@@H](N)C[C@H]2N)OC[C@]1(C)O	100 µg/mL	-	21 mm
C(/C=C/c1ccccc1)=NCCNCCN=C/C=C/c1ccccc1.[Cl][Hg][Cl]	30000 µg/mL	-	32 mm
COc1ccc(-c2oc3ccc(Cl)cc3c(=O)c2OC(C)=O)cc1OC	100 µg/mL	-	18 mm
COc1ccc2nc(NS(=O)(=O)C3C(=O)ONN3c3ccc(C)cc3)sc2c1	250 µg/mL	MTCC 227	21 mm
C(/C=C/c1ccccc1)=NCCNCCN=C/C=C/c1ccccc1.[I][Hg][I]	10000 µg/mL	-	35 mm
CCCCc1nc(Cl)c(-c2cc(-c3ccc([N+](=O)[O-])cc3)nc3c2C(=O)c2ccccc2-3)n1Cc1ccccc1	10 µg/disc	MTCC 7253	11 mm
CCn1cc(C(=O)O)c(=O)c2ccc(C)nc21	30 µg	ATCC 10231	6 mm

Again, the opening 2 rows:

| SMILES | dose | strain or isolate | value |
|---|---|---|---|
| CCCCc1nc(Cl)c(-c2cc(-c3cc(OC)c(OC)c(OC)c3)nc3c2C(=O)c2ccccc2-3)n1Cc1ccccc1 | 10 µg/disc | MTCC 7253 | 10 mm |
| CC(C)(CN=C/C=C/c1ccccc1[N+](=O)[O-])CN=C/C=C/c1ccccc1[N+](=O)[O-] | 5 mg/disc | - | 18 mm |

An empty or dashed field is not shown. Conditions beyond the fields shown may differ between rows.